Compound potency records, mixed from different reports. Data source: NIAID ChemDB in PubChem.

Shared fields: whole-cell or culture tests; species: Mycobacterium tuberculosis

MIC50, MIC90 and the like: level of inhibition, or share of isolates inhibited. Inhibition is in % at the dose shown (toxicity tests: loss of growth or viability). MIC bound: limit read from a one-dose screen. Rows are shuffled and stem from different studies. Blank or dashed fields: not listed here. ECn is the concentration giving n% inhibition of infection, replication or growth.

compound,dose,strain or isolate,mutations,read-out,method,result
CN1C(=O)CN2CCc3ccccc3C2c2cc(Cl)ccc21,-,H37Rv,-,MIC bound,BACTEC,>12.5 µg/mL
Cc1ccc(NC(=S)N=Nc2c(O)[nH]c3ccc(C)cc23)cc1,-,H37Rv,-,EC90,broth dilution / resazurin,>100 µg/mL
COc1ncnc2c1cnn2Cc1cn(COC[C@@H](O)CO)nn1,12.5 µg/mL,H37Rv,-,inhibition,BACTEC,0%
Cc1ccc2c(c1)c(N=NC(=S)Nc1ccccc1)c(O)n2C,-,H37Rv,-,EC50,broth dilution / resazurin,46.5 µg/mL
C=C1C(=O)OC2CC(C)C3(O)CCC(=O)C3(C)CC12,-,H37Rv,-,MIC bound,BACTEC,>12.5 µg/mL
CO[C@H]1/C=C/O[C@@]2(C)Oc3c(C)c(O)c4c(O)c(c(/C=N/N5CCN(C)CC5)c(O)c4c3C2=O)NC(=O)/C(C)=C\C=C\[C@H](C)[C@H](O)[C@@H](C)[C@@H](O)[C@@H](C)[C@H](OC(C)=O)[C@@H]1C,-,-,Rifampicin-resistant rpoB H445N,MIC,fluorescence,0.33 µM
CC(C)N=c1cc2n(-c3ccc(Cl)cc3)c3ccccc3nc-2cc1Nc1ccc(Cl)cc1,-,PZA-R,-,MIC,-,≤0.1 µg/mL
O=C1/C(=C/c2ccc(Br)cc2)c2ccccc2[C@]12[C@@H](c1ccc(Br)cc1)C1CCCN1[C@]21C(=O)N(Cc2ccc([N+](=O)[O-])cc2)c2ccccc21,-,-,-,MIC,visual reading,6.25 µg/mL
CCCCCCCCCCCCS(=O)(=O)C[C@@H]1O[C@H](CO)[C@@H](O)[C@@H]1O,6.25 µg/mL,H37Rv,-,inhibition,-,45%
CC1=C(O)C(C)(Cc2cccc(C(=O)c3ccccc3)c2)SC1=O,-,H37Rv,-,MIC50,-,50 µM
CCCCCCCCCCS(=O)(=O)C[C@@H]1O[C@H](CO)[C@@H](O)[C@@H]1O,6.25 µg/mL,H37Rv,-,inhibition,-,21%
COc1cccc(Sc2nc(Cl)nc3nc[nH]c23)c1,-,H37Rv,-,MIC90,-,>6.25 µg/mL
COc1ccc(/C=C2/C(=O)[C@]3(c4ccccc42)[C@@H](c2ccc(OC)cc2)C2CCCN2[C@]32C(=O)c3cccc4cccc2c34)cc1,-,-,-,MIC,visual reading,1.56 µg/mL
C[N+](C)(C)CCCN1c2ccccc2Sc2c1ccc1ccccc21,-,H37Rv,-,MIC,-,3.44 µg/mL
O=C1c2ccccc2C(=O)c2c(NCCN3CCOCC3)ccc(NCCN3CCOCC3)c21,12.5 µg/mL,H37Rv,-,inhibition,BACTEC,69%
CC1COc2c(N3CCN(C)CC3)c(F)cc3c(=O)c(C(=O)O)cn1c23,-,9 isolates (RMP INH-S),-,MIC50,-,1 µg/mL
COc1ccccc1CSc1nc(=O)[nH]c2nc[nH]c12,-,H37Rv,-,MIC90,-,>6.25 µg/mL
CCNC(=S)N=Nc1c(O)n(C)c2ccc(OC(F)(F)F)cc12,-,H37Rv,-,EC50,broth dilution / resazurin,5.987 µg/mL
S=C(Nc1ccc(N=Nc2ccccc2)cc1)SCc1ccc(Cl)cc1,128 µg/mL,H37Rv,-,inhibition,BACTEC,100%
Cc1cc(O)c2c(c1)C(=O)C=C(c1c(C)cc(O)c3c1C(=O)C=CC3=O)C2=O,-,-,-,MIC,-,10 µg/mL
CN(C)CCc1c2c(nc3ccccc13)C(=O)c1ccccc1C2=O,-,H37Rv,-,MIC,-,0.78 µg/mL
O=C1/C(=C/c2ccc(Cl)cc2)c2ccccc2[C@@]12[C@H](c1ccc(Cl)cc1)C1CCCN1[C@]21C(=O)N(Cc2ccccc2)c2ccccc21,-,-,-,MIC,visual reading,6.25 µg/mL
CC1=C(O)C(C)(CCC(C)C)SC1=O,-,H37Rv,-,MIC50,-,230 µM
CN1CCN(c2ccc([N+](=O)[O-])c3no[n+]([O-])c23)CC1,6.25 µg/mL,H37Rv,-,inhibition,resazurin,50%
CC(C)=CCC/C(C)=C/CC/C(C)=C/CC1(C)SC(=O)C(C)=C1O,-,H37Rv,-,MIC50,-,23 µM
N=C(N)Sc1cc(O)c(O)c2ccccc12,-,H37Rv,-,MIC bound,resazurin,>6.25 µg/mL
CC(=O)O[C@H]1CC[C@]2(C)C3=CC[C@]4(C)[C@@H]([C@H](C)CC/C=C(\C)C(=O)O)C[C@H](OC(C)=O)[C@@]4(C)C3=CC[C@H]2C1(C)C,-,H37Ra,-,MIC90,GFP,0.391 µg/mL
O=C1/C(=C/c2ccc(Cl)cc2)c2ccccc2[C@]12[C@@H](c1ccc(Cl)cc1)C1CCCN1[C@]21C(=O)Nc2ccccc21,-,-,-,MIC,visual reading,6.25 µg/mL
Clc1ccc(Sc2nc(Cl)nc3nc[nH]c23)cc1,6.25 µg/mL,H37Rv,-,inhibition,-,41%
COc1ncnc2c1cnn2COC[C@@H](O)CO,12.5 µg/mL,H37Rv,-,inhibition,BACTEC,0%
Cc1cccc2[nH]c(=O)c3cccnc3[n+]12,-,H37Rv,-,MIC,-,>20 µg/mL
CN1C(=O)[C@@]2(c3ccccc31)N1CCCC1[C@H](c1ccc(Br)cc1)[C@@]21C(=O)/C(=C/c2ccc(Br)cc2)c2ccccc21,-,-,-,MIC,visual reading,3.125 µg/mL
O=C(NNC(=O)c1cc(Cl)ccc1[N+](=O)[O-])c1ccncc1,-,ATTC 27294,-,MIC,resazurin,0.5 µg/mL
Cc1ccc(N2C(=O)C(C)SC2=S)cc1Cl,-,H37Rv,-,MIC bound,BACTEC,>12.5 µg/mL
COc1c2ccoc2nc2c3c(ccc12)OCO3,-,H37Rv,-,MIC,-,33 µg/mL
OC[C@H](O)COCn1ncc2c(SCc3ccccc3)ncnc21,12.5 µg/mL,H37Rv,-,inhibition,BACTEC,0%
COc1cccc(/C=N/NC(=O)c2cc(C)nc3ccc(Br)cc23)c1O,12.5 µg/mL,H37Rv,-,inhibition,BACTEC,1%
O=c1[nH]cnc2c1cnn2Cc1cn(COC[C@@H](O)CO)nn1,-,H37Rv,-,EC50,BACTEC,>12.5 µg/mL
N#CC1(OC2OC(CO)C(O)C(O)C2O)C=CC(OS(=O)(=O)O)C1,-,H37Rv,-,MIC,BACTEC,≥12.5 µg/mL
CSc1ncnc2c1cnn2Cc1cnnn1COC[C@H](O)CO,12.5 µg/mL,H37Rv,-,inhibition,BACTEC,0%
COC(=O)[C@@]12C3=NO[C@]1(C(=O)OC)C(O[Si](C)(C)C(C)(C)C)[C@H]1OC(C)(C)O[C@H]1[C@@H]2[C@@H](OCc1ccccc1)CC3,-,H37Rv,-,MIC bound,resazurin,>6.25 µg/mL
CN(C)/C=C/c1ccnc2c1C(=O)c1ccccc1C2=O,-,H37Rv,-,MIC,-,1.56 µg/mL
CC(C)CCCC(C)CCS(=O)(=O)C[C@@H]1O[C@H](CO)[C@@H](O)[C@@H]1O,-,H37Rv,-,EC50,-,>6.25 µg/mL
O=C(N/N=C/c1ccc(Cl)cc1[N+](=O)[O-])c1ccncc1,-,ATTC 27294,-,MIC,resazurin,1.2 µg/mL
Cc1c(NC(=S)Nc2ccccc2)c(=O)n(-c2ccccc2)n1C,-,H37Rv,-,MIC,BACTEC,≥12.8 µg/mL
Oc1[nH]c2ccc(OC(F)(F)F)cc2c1N=NC(=S)Nc1ccc(Cl)cc1,-,H37Rv,-,EC50,broth dilution / resazurin,1.259 µg/mL
CCCC(=O)O[C@H]1C[C@H]([C@H](C)CC/C=C(\C)C(=O)O)[C@@]2(C)CC=C3C(=CC[C@H]4C(C)(C)[C@@H](OC(C)=O)CC[C@]34C)[C@]12C,-,H37Ra,-,MIC90,GFP,1.56 µg/mL
Oc1c(N=NC(=S)Nc2ccc(Br)cc2)c2cc(OC(F)(F)F)ccc2n1CN1CCOCC1,-,H37Rv,-,EC90,broth dilution / resazurin,3.034 µg/mL
CC(=O)O[C@H]1CC[C@]2(C)C3=CC[C@]4(C)[C@@H]([C@H](C)CC/C=C(\C)C(=O)O)C[C@H](OC=O)[C@@]4(C)C3=CC[C@H]2C1(C)C,-,H37Ra,-,MIC90,GFP,3.13 µg/mL
C=C/C(C)=C/[C@@]1(C)SC(=O)C(C)=C1O,-,H37Rv,-,MIC90,-,125 µM
O=C(Nc1ccc([N+](=O)[O-])cc1)c1cccnc1Cl,-,H37Rv,-,MIC,-,>20 µg/mL
NNC(=O)C(CO)c1ccccc1,-,H37Rv,-,MIC bound,BACTEC,>12.5 µg/mL
CNC(=S)N=Nc1c(O)[nH]c2ccc(C)cc12,-,H37Rv,-,EC50,broth dilution / resazurin,>100 µg/mL
CCCCCCCCCCCCCCCCP(=O)([O-])C[C@@H]1O[C@H](CO)[C@@H](O)[C@@H]1O,6.25 µg/mL,H37Rv,-,inhibition,-,0%
C=C(C=O)c1c2c(nc3ccccc13)C(=O)c1ccccc1C2=O,-,H37Rv,-,MIC,-,0.2 µg/mL
CCN(CC)CCOc1ccc(NC(=S)Nc2ccc(OCC(C)C)cc2)cc1,-,H37RV #302,-,MIC,-,31.3 µg/mL
COC(=O)c1c(C)ccc2c(O)c3c(cc12)C(=O)c1c2c(cc(O)c1C3=O)C1(C)OC(C)(O2)C(O)C(N(C)C)C1O,-,H37Rv,-,MIC bound,BACTEC,≤12.8 µg/mL
C[C@@H]1CN(c2c(F)c(N)c3c(=O)c(C(=O)O)cn(C4CC4)c3c2F)C[C@H](C)N1,-,900201,-,MIC,-,0.2 µg/mL
Cc1cc(N(CCC#N)CCC#N)ccc1/C=C1\CN(N2C(=O)/C(=C\c3ccc(N(CCC#N)CCC#N)cc3C)N=C2c2ccccc2)C(c2ccccc2)=N1,12.5 µg/mL,H37Rv,-,inhibition,BACTEC,8%
Cc1c2c(nc3ccccc13)C(=O)c1ccccc1C2=O,-,H37Rv,-,MIC,-,1.56 µg/mL
CCCCCCCCCCCCP(=O)([O-])C[C@@H]1O[C@H](CO)[C@@H](O)[C@@H]1O,-,H37Rv,-,EC50,-,>6.25 µg/mL
C#CCN1C(=O)[C@@]2(c3ccccc31)N1CCCC1[C@H](c1ccc(OC)cc1)[C@@]21C(=O)/C(=C/c2ccc(OC)cc2)c2ccccc21,-,-,-,MIC,visual reading,3.13 µg/mL
CC(=O)ONc1nc(C)c(CCC2OCCO2)c(=O)[nH]1,6.25 µg/mL,H37Rv,-,inhibition,resazurin,37%
Cn1c(O)c(N=NC(=S)NC2CCCCC2)c2cc(OC(F)(F)F)ccc21,-,H37Rv,-,EC50,broth dilution / resazurin,19.8 µg/mL
Cc1oc(-c2cccc(F)c2)nc1C(N)=O,12.5 µg/mL,H37Rv,-,inhibition,BACTEC,-5%
CO[C@H]1/C=C/O[C@@]2(C)Oc3c(C)c(O)c4c(O)c(c(/C=N/N5CCN(C6CCCC6)CC5)c(O)c4c3C2=O)NC(=O)/C(C)=C\C=C\[C@H](C)[C@H](O)[C@@H](C)[C@@H](O)[C@@H](C)[C@H](OC(C)=O)[C@@H]1C,-,H37RV ATCC9360,-,MIC,-,0.05 µg/mL
COc1ccc(-c2cc(C(=O)O)c3cc4ccccc4cc3n2)cc1Br,12.5 µg/mL,H37Rv,-,inhibition,BACTEC,93%
Clc1ccccc1Sc1ncnc2nc[nH]c12,-,H37Ra,-,MIC,-,>12.8 µg/mL
COc1ccc(NC(=O)c2cccnc2Cl)cc1,-,H37Rv,-,MIC,-,>20 µg/mL
O=c1nc(SCc2ccncc2)c2[nH]cnc2[nH]1,6.25 µg/mL,H37Rv,-,inhibition,-,41%
NNC(=O)c1ccncc1,-,76,-,MIC,-,<0.5 µg/mL
OC[C@@H](O)COCn1nncc1Cn1ncc2c(Sc3ccccc3)ncnc21,-,H37Rv,-,EC50,BACTEC,>12.5 µg/mL
CC(C)=CCCC(C)CCC1(C)SC(=O)C(C)=C1O,-,H37Rv,-,MIC90,-,56 µM
CCOCC1(c2ccccc2)C(=O)N(C)C(=O)N1C,-,H37Rv,-,MIC bound,BACTEC,>12.5 µg/mL
O=C1c2cccnc2-c2nccc3c2c1nc1ccccc13,-,H37Rv,-,MIC,-,0.1 µg/mL
O=C(Nc1ccc(Cl)cc1)c1cccnc1Cl,-,H37Rv,-,MIC,-,>20 µg/mL
O=C(Nc1nncs1)c1cnccn1,-,H37Rv,-,MIC bound,BACTEC,>12.5 µg/mL
OC[C@@H](O)COCn1cc(Cn2ncc3c(SCc4ccccc4)ncnc32)nn1,-,H37Rv,-,EC50,BACTEC,>12.5 µg/mL
CCCCOc1ccc(NC(=S)Nc2ccc(N(C)C)cc2)cc1,-,H37RV #80,-,MIC,-,2 µg/mL
C/C=C/C(=O)O[C@H]1C[C@H]([C@H](C)CC/C=C(\C)C(=O)O)[C@@]2(C)CC=C3C(=CC[C@H]4C(C)(C)[C@@H](OC(C)=O)CC[C@]34C)[C@]12C,-,H37Ra,-,MIC90,GFP,0.781 µg/mL
O=C1CC[C@H](O)c2ccccc21,-,H37Rv,-,MIC,-,4 µg/mL
Cc1ccccc1CSc1ccccn1,-,H37Ra,-,MIC,-,>12.8 µg/mL
CC(=O)O[C@H]1C[C@H]([C@H](C)CC/C=C(\C)C(=O)O)[C@@]2(C)CC=C3C(=CC[C@H]4C(C)(C)[C@@H](OC=O)CC[C@]34C)[C@]12C,-,H37Ra,-,MIC90,GFP,1.56 µg/mL

Repeating the final 7 entries:

compound	dose	strain or isolate	mutations	read-out	method	result
O=C(Nc1nncs1)c1cnccn1	-	H37Rv	-	MIC bound	BACTEC	>12.5 µg/mL
OC[C@@H](O)COCn1cc(Cn2ncc3c(SCc4ccccc4)ncnc32)nn1	-	H37Rv	-	EC50	BACTEC	>12.5 µg/mL
CCCCOc1ccc(NC(=S)Nc2ccc(N(C)C)cc2)cc1	-	H37RV #80	-	MIC	-	2 µg/mL
C/C=C/C(=O)O[C@H]1C[C@H]([C@H](C)CC/C=C(\C)C(=O)O)[C@@]2(C)CC=C3C(=CC[C@H]4C(C)(C)[C@@H](OC(C)=O)CC[C@]34C)[C@]12C	-	H37Ra	-	MIC90	GFP	0.781 µg/mL
O=C1CC[C@H](O)c2ccccc21	-	H37Rv	-	MIC	-	4 µg/mL
Cc1ccccc1CSc1ccccn1	-	H37Ra	-	MIC	-	>12.8 µg/mL
CC(=O)O[C@H]1C[C@H]([C@H](C)CC/C=C(\C)C(=O)O)[C@@]2(C)CC=C3C(=CC[C@H]4C(C)(C)[C@@H](OC=O)CC[C@]34C)[C@]12C	-	H37Ra	-	MIC90	GFP	1.56 µg/mL